Measurements published in patent publication US20220403009A1 (IGM BIOSCIENCES, published 2022).

Target: SARS-CoV-2 RBD variant printed 'G446V' a second time (Table 10, row 15)

B1: Ab4 IgM (antibody)
VH: QVQLVESGGGVVQPGRSLRLSCAASGFTFSNYAMYWVRQAPGKGLEWVAVISYDGSNKYYADSVKGRFTISRDNSKNTLYLQMNSLRTEDTAVYYCASGSDYGDYLLVYWGQGTLVTVSS
VL: QSALTQPASVSGSPGQSITISCTGTSSDVGGYNYVSWYQQHPGKAPKLMIYDVSKRPSGVSNRFSGSKSGNTASLTISGLQSEDEADYYCNSLTSISTWVFGGGTKLTVL
chain: not shown
Kd: 2.3 nM
